{"source": "patent US20040121316A1", "about": "(priority 2002, published 2004)", "key": {"WT HIV protease": {"molecular_target": "T1, WT HIV protease (Human immunodeficiency virus type 1 group M subtype B, UniProt P04585)", "T1 construct": "synthetic hexapeptide substrate cleavage by HIV-1 protease", "format": "biochemical, HIV-1"}, "WT HIV-1": {"tested_on": "WT HIV-1", "settings": "read-out: Cell-based assay (MT-4) EC50/nM WT"}, "[1]": {"molecular_target": "T2, recombinant HIV-1 protease (Human immunodeficiency virus type 1 group M subtype B, UniProt P04585)", "T2 construct": "Enzyme: recombinant HIV-1 protease expressed in E.Coli; purchased Bachem California, Inc. H-9040; host or cells: E. coli", "format": "biochemical"}}}
{"substance": "DMP-850 [reference compound]", "values": [{"measurement": "IC50", "setting": "WT HIV protease", "result": 3, "unit": "nM"}, {"measurement": "EC50", "setting": "WT HIV-1", "result": 165, "unit": "nM"}, {"measurement": "Ki", "setting": "[1]", "result": 0.033, "unit": "nM"}]}
